Test results reported in patent US20100099198A1 (priority 2008, published 2010).

Legend:
[1] = target: (M113F)7(T145F)7(K147N)7 αHL protein pore (Staphylococcus aureus, UniProt P09616, K173N/M139F/T171F); conditions: sensor 1 of four-pore array = (M113F)7(T145F)7(K147N)7 pore
[2] = target: (M113R)7(T145R)7 αHL protein pore (Staphylococcus aureus, UniProt P09616, M139R/T171R); conditions: for signal (current blocking events) in sensor 3: sensor 3 of four-pore array = (M113R)7(T145R)7 pore
[3] = target: (M113E)7 αHL protein pore (Staphylococcus aureus, UniProt P09616, M139E); conditions: in (M113E)7; 1 M NaCl, 10 mM Tris.HCl pH 7.5; FIG. 6
[4] = system: double-channel consisting of a single (M113R)7(T145R)7 pore and a single (M113F)7(T145F)7(K147N)7 protein; conditions: single component present, -40 mV, combined open channel current -51.0 pA, FIG. 9b

Row | Substance | signal (current blocking events) in sensor 1 [1] | signal (current blocking events) in sensor 3 [2] | dwell time [3] [ms] | dwell time ([2]; in (M113R)7(T145R)7, 1 M NaCl, 10 mM Tris.HCl pH 7.5, FIG. 6) [ms] | mean residual current of events ([2]; single (M113R)7(T145R)7 pore (sensor 1 of FIG. 8), -40 mV, 20 μM DTPMPA, open channel current -27.1 pA) [pA] | mean residual current of current blockage events [4] [pA]
1 | cyclo(P-G)3 | caused current blocking events | no signal | – | – | – | –
2 | Y-Y-Y-Y-Y-Y | – | – | 0.43 | 3.1 | – | –
3 | Diethylenetriaminepentamethylenephosphonic acid heptasodium salt | no signal | signal | – | – | −4.0 | −28.1
